Measured data: PubChem BioAssay AID1259414 (Drosophila RNAi Screening Center, 2018)
The screen tested about 24,000 reagents; below is a random part of those with a known target gene and a result. In the full data, about 1,210 (5%) were called active. 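Inactive calls also include excluded dsRNAs with several or no targets, genes unexpressed in JW18, and well A1, regardless of score.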 Unmarked entries are inactive. Names joined by + are all predicted targets of the reagent.

- Aim: 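Host factors increasing or decreasing Wolbachia levels in cultured fly cells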 (primary screen)
- Cells: Drosophila JW18 cells infected with Wolbachia
- Reagent: long dsRNA against Drosophila genes, 0.25 µg dsRNA per well of a 384-well plate
- Timing: 5 days
- Treatment: cells persistently infected with Wolbachia before knock-down; no added drug
- Measurement: 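Automated imaging of bacterial rRNA staining divided by host cell count, reported as plate-normalised robust z-score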
- Scale: Wolbachia per cell robust z: higher = more Wolbachia per host cell than the plate typical
- Rule for the call: 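Hit when robust z is 1.5 or more, or -1.5 or less, in at least two of three replicates; excludes dsRNAs with several or no targets, genes not expressed in JW18 and well A1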

no.	target gene	dsRNA	Wolbachia per cell robust z, rep 1	Wolbachia per cell robust z, rep 2	Wolbachia per cell robust z, rep 3
1	CG13998	DRSC02330	-4.35	-0.843	-0.399
2	CG13998	DRSC41275	1.17	-0.456	0.00265
3	pcx (pecanex)	DRSC18186	-4.15	0.556	0.566
4	pcx (pecanex)	DRSC18187	0.00474	0.153	-0.199
5	pcx (pecanex)	DRSC18188	0.468	-0.0774	0.0655
6	pcx (pecanex)	DRSC18189	-0.587	-2.55	-0.927
7	pcx (pecanex)	DRSC18190	0.681	0.191	-1.06
8	pcx (pecanex)	DRSC18816	0.615	0.853	0.359
9	CG9759	DRSC16558	0.51	-0.794	0.52
10	CG9759	DRSC26341	1.68	-4.67	-4.75
11	mil (milkah)	DRSC15696	-0.478	-0.133	0.23
12	tpr (tracheal-prostasin)	DRSC04468	-0.93	0.436	-0.598
13	tpr (tracheal-prostasin)	DRSC28107	0.732	0.377	0.77
14	pds5	DRSC06670	0.893	2.19	0.967
15	Cyp6w1 (Cytochrome P450 6w1)	DRSC04909	-4.89	0.911	-5.26
16	pan (pangolin)	DRSC17176	-0.145	-7.25	1.25
17	pan (pangolin)	DRSC22582	-0.371	-0.162	0.507
18	pan (pangolin)	DRSC29251	1.36	-0.283	0.297
19	Arl5 (ADP-ribosylation factor-like 5)	DRSC10785	-0.0532	0.54	-0.632
20	Arl5 (ADP-ribosylation factor-like 5)	DRSC25831	-0.916	0.295	-1.02
21	ERp44 (Endoplasmic reticulum protein 44)	DRSC20215	-0.381	1.21	1.5
22	Lcp65Aa	DRSC11209	0.643	-0.79	0.0854
23	Lcp65Aa	DRSC27546	1.37	0.478	0.572
24	Dnaaf6 (Dynein axonemal assembly factor 6)	DRSC10473	-0.588	0.548	-1.08
25	RhoGAP16F (Rho GTPase activating protein at 16F)	DRSC20025	-0.155	0.852	0.194
26	Idgf5 (Imaginal disc growth factor 5)	DRSC06919	-0.424	-1.34	0.168
27	Idgf5 (Imaginal disc growth factor 5)	DRSC26392	-0.955	-0.984	0.607
28	CG7910	DRSC16341	-0.797	0.297	-4.02
29	CG30026	DRSC05276	-0.744	-0.399	0.754
30	CG30026	DRSC29320	-0.531	0.119	-0.954
31	CG12691	DRSC17880	-4.25	-0.39	0.542
32	CG14431	DRSC17925	1.09	0.505	-2.05
33	CG14431	DRSC23593	0.434	0.106	1.21

In a second layout: 4 of the entries above.
Lcp65Aa [DRSC27546]
- Wolbachia per cell robust z, rep 1: 1.37
- Wolbachia per cell robust z, rep 2: 0.478
- Wolbachia per cell robust z, rep 3: 0.572

Dnaaf6 (Dynein axonemal assembly factor 6) [DRSC10473]
- Wolbachia per cell robust z, rep 1: -0.588
- Wolbachia per cell robust z, rep 2: 0.548
- Wolbachia per cell robust z, rep 3: -1.08

RhoGAP16F (Rho GTPase activating protein at 16F) [DRSC20025]
- Wolbachia per cell robust z, rep 1: -0.155
- Wolbachia per cell robust z, rep 2: 0.852
- Wolbachia per cell robust z, rep 3: 0.194

Idgf5 (Imaginal disc growth factor 5) [DRSC06919]
- Wolbachia per cell robust z, rep 1: -0.424
- Wolbachia per cell robust z, rep 2: -1.34
- Wolbachia per cell robust z, rep 3: 0.168

Further records:
no.	target gene	dsRNA	Wolbachia per cell robust z, rep 1	Wolbachia per cell robust z, rep 2	Wolbachia per cell robust z, rep 3
34	san (separation anxiety)	DRSC07695	-0.474	0.588	0.433
35	Optix	DRSC05078	0.8	-0.153	0.196
36	Optix	DRSC07484	-0.127	-0.243	-0.568
37	Optix	DRSC21963	0.738	0.295	0.373
38	Optix	DRSC29089	0.911	0.198	0.437
39	ND-51 (NADH dehydrogenase (ubiquinone) 51 kDa subunit)	DRSC03145	0.38	-0.0465	1.37
40	Gasz	DRSC06829	0.14	0.31	-0.974
41	Gasz	DRSC27833	-2.05 (active)	-0.643	-1.71
42	MRG15 (MORF-related gene 15)	DRSC16731	-1.82	0.831	0.068
43	CG5567	DRSC10517	-0.237	0.706	0.997
44	CG5567	DRSC41438	-0.158	-0.00349	0.0231
45	CG5493 + CG5327	DRSC25926	-0.495	-0.823	-2.19
46	CG30122	DRSC06935	0.945	0.988	-0.0489
47	NimB4 (Nimrod B4)	DRSC01884	0.756	0.583	0.0123
48	NimB4 (Nimrod B4)	DRSC24265	-1.47	-1.15	-0.15
49	CG31524	DRSC22014	0.85	0.894	0.163
50	CG31524	DRSC28999	-0.441	-0.433	-2.31
51	Pgi (Phosphoglucose isomerase)	DRSC07507	1.44	-0.434	1.19
52	Pgi (Phosphoglucose isomerase)	DRSC40757	-0.389	-0.0473	0.967
53	CG3650	DRSC04401	0.567	0.206	0.456
54	CG3650	DRSC28976	-0.426	-0.805	-0.893
55	CG3492	DRSC04373	0.447	-0.455	0.373
56	IntS10 (Integrator 10)	DRSC08173	0.248	0.983	-0.95
57	eIF5 (eukaryotic translation initiation factor 5)	DRSC20165	0.151	0.0447	0.756
58	sob	DRSC00838	-6.11	1.18	-7.56
59	sob	DRSC25075	0.998	0.926	0.913
60	Syx6 (Syntaxin 6)	DRSC07032	-0.0242	0.896	-0.00187
61	Syx6 (Syntaxin 6)	DRSC25244	1.5	1.21	0.842
62	Nepl11 (Neprilysin-like 11)	DRSC12333	-3.35	0.569	0.534
63	CG14892	DRSC15014	0.38	0.296	1.06
64	CG5188	DRSC02826	-0.462	-0.574	0.0225
65	dlp (dally-like)	DRSC10472	-0.236	0.456	0.702
66	dlp (dally-like)	DRSC23803	1.17	0.996	-0.416
67	CG5382	DRSC15786	0.732	0.174	-1.22
68	Prdm13 (PR/SET domain 13)	DRSC09970	1.37	0.439	-0.302
